From patent US6440986B2, “HIV Inhibiting pyrimidine derivatives” (Janssen Pharmaceutica, N.V., priority 1998, dated 2002)

Test system: HIV-1
Experiment: in vitro anti-HIV assay: inhibition of the HIV-induced cytopathic effect in MT-4 cells (MTT)
Type: cell-based
Conditions: selectivity index = ratio of CC50 to IC50
Procedure: A rapid, sensitive and automated assay procedure was used for the in vitro evaluation of anti-HIV agents. An […] T4-cell line, MT-4, which was previously shown (Koyanagi et al., Int. J. Cancer, 36, 445-451, 1985) to be highly susceptible to and permissive for HIV infection, served as the target cell line. Inhibition of the HIV-induced cytopathic effect was used as the end point. The viability of both HIV- and mock-infected cells was assessed spectrophotometrically via the in situ reduction of 3-(4,5-dimethylthiazol-2-yl)-2,5-diphenyltetrazolium bromide (MTT). […] The percent protection achieved by the compound in HIV-infected cells was calculated by the following formula: [formula]
whereby (ODT)HIV is the optical density measured with a given concentration of the test compound in HIV-infected cells; (ODC)HIV is the optical density measured for the control untreated HIV-infected cells: (ODC)MOCK is the optical density measured for the control untreated mock-infected cells; all optical density values were determined at 540 nm. […] The ratio of CC50 to IC50 was defined as the selectivity index (SI).

N#Cc1ccc(Nc2nc(Cc3c(Cl)cccc3Cl)cc(NCCO)n2)cc1 [Compound 2] showed an SI of over 2890.

For N#Cc1ccc(Nc2nc(Cc3c(Cl)cccc3Cl)cc(NCC(O)c3ccccc3)n2)cc1 (centres unmarked) [Compound 4], the SI was over 317.

Compound CC(C)OCCCNc1cc(Cc2c(Cl)cccc2Cl)nc(Nc2ccc(C#N)cc2)n1.Cl [Compound 7] has an SI of over 102.

Compound COc1cccc(CCNc2cc(Cc3c(Cl)cccc3Cl)nc(Nc3ccc(C#N)cc3)n2)c1 [Compound 8] has an SI of over 12.

For COc1ccc(CCNc2cc(Cc3c(Cl)cccc3Cl)nc(Nc3ccc(C#N)cc3)n2)cc1 [Compound 10], the SI was over 39.

With N#Cc1ccc(Nc2nc(Cc3c(Cl)cccc3Cl)cc(NCc3ccccc3)n2)cc1 [Compound 12] the SI was 32.

Work on N#Cc1ccc(Nc2nc(Cc3c(Cl)cccc3Cl)cc(NCCc3cccs3)n2)cc1 [Compound 14] yielded an SI of 40.

N#Cc1ccc(Nc2nc(Cc3c(Cl)cccc3Cl)cc(NCCc3ccccn3)n2)cc1 [Compound 16] gave an SI of 105.

For CCCCCCCC(=O)Nc1cc(Cc2c(Cl)cccc2Cl)nc(Nc2ccc(C#N)cc2)n1 [Compound 17, N-[6-[(2,6-dichloro-phenyl)methyl]-2-[(4-cyano-phenyl)amino]-4-pyrimidinyl]octanamide], the SI was 54.

Compound CCCCCCCCCCCC(=O)Nc1cc(Cc2c(Cl)cccc2Cl)nc(Nc2ccc(C#N)cc2)n1 [Compound 18] has an SI of 29.

CCOC(=O)Nc1cc(Cc2c(Cl)cccc2Cl)nc(Nc2ccc(C#N)cc2)n1 [Compound 20] gave an SI of 1413.

CNc1cc(Cc2c(Cl)cccc2Cl)nc(Nc2ccc(C#N)cc2)n1 [Compound 24] was tested, and the SI was 2667.

Work on N#Cc1ccc(Nc2nc(Cc3c(Cl)cccc3Cl)cc(NC(=O)CN3CCCCC3)n2)cc1 [Compound 25, N-[6-[(2,6-dichloro-phenyl)methyl]-2-[(4-cyano-phenyl)amino]-4-pyrimidinyl]-1-piperidine-acetamide] yielded an SI of over 1272.

CN(C)C=Nc1cc(Cc2c(Cl)cccc2Cl)nc(Nc2ccc(C#N)cc2)n1 [Compound 26, N′-[2-[(4-cyanophenyl)amino]-6-[(2,6-dichlorophenyl)methyl]-4-pyrimidinyl]-N,N-dimethylmethanimidamide] was tested, and the SI was 2990.

In the case of Nc1cc(Cc2c(Cl)cccc2Cl)nc(Nc2ccc(Br)cc2)n1 [Compound 27], the SI is reported as over 1169.

Nc1nc(Cc2c(Cl)cccc2Cl)cc(Nc2ccc(Br)cc2)n1 [Compound 28] was tested, and the SI was over 253.

Work on Nc1cc(Cc2c(Cl)cccc2Cl)nc(Nc2ccc(Cl)cc2)n1 [Compound 29] yielded an SI of over 1324.

In the case of Nc1nc(Cc2c(Cl)cccc2Cl)cc(Nc2ccc(Cl)cc2)n1 [Compound 30], the SI is reported as over 228.

Nc1nc(Cc2c(Cl)cccc2Cl)cc(Nc2ccc(Br)cn2)n1 [Compound 31] gave an SI of 3630.

With Nc1cc(Cc2c(Cl)cccc2Cl)nc(Nc2ccc(Br)cn2)n1 [Compound 32] the SI was over 248.

Work on Nc1nc(Cc2c(Cl)cccc2Cl)cc(Nc2ccc(F)cc2)n1 [Compound 34] yielded an SI of 181.

Cc1ccc(Nc2nc(N)cc(Cc3c(Cl)cccc3Cl)n2)cc1 [Compound 35] showed an SI of 409.

Cc1ccc(Nc2cc(Cc3c(Cl)cccc3Cl)nc(N)n2)cc1 [Compound 36] gave an SI of over 309.

Nc1cc(Cc2c(Cl)cccc2Cl)nc(Nc2ccccc2)n1 [Compound 37] was tested, and the SI was 75.

Nc1nc(Cc2c(Cl)cccc2Cl)cc(Nc2ccccc2)n1 [Compound 38] gave an SI of 13.

Work on N#Cc1ccc(Nc2cc(Cc3c(Cl)cccc3Cl)nc(NCCCN3CCCC3=O)n2)cc1 [Compound 39, 4-[[6-[(2,6-dichloro-phenyl)methyl]-2-[[3-(2-oxo-1-pyrrolidinyl)propyl]amino]-4-pyrimidinyl]amino]benzonitrile] yielded an SI of over 65.

Cl.N#Cc1ccc(Nc2cc(Cc3c(Cl)cccc3Cl)nc(NCCO)n2)cc1 [Compound 40] showed an SI of 158.

Work on CNc1nc(Cc2c(Cl)cccc2Cl)cc(Nc2ccc(C#N)cc2)n1 [Compound 41] yielded an SI of 17.

Work on N#Cc1ccc(Nc2cc(Cc3c(Cl)cccc3Cl)nc(NCCCO)n2)cc1 [Compound 42] yielded an SI of 88.

Work on N#Cc1ccc(Nc2cc(Cc3c(Cl)cccc3Cl)nc(NCCCCO)n2)cc1 [Compound 43] yielded an SI of over 165.

With N#Cc1ccc(Nc2cc(Cc3c(Cl)cccc3Cl)nc(N)n2)cc1 [Compound 45] the SI was 5688.

Work on Cc1c(Cc2c(Cl)cccc2Cl)nc(N)nc1Nc1ccc(C#N)cc1 [Compound 46] yielded an SI of over 2.

With Cc1c(Cc2c(Cl)cccc2Cl)nc(N)nc1Nc1ccc(Br)cc1 [Compound 48] the SI was over 1.

N#Cc1ccc(Nc2cc(Oc3c(Cl)cccc3Cl)nc(N)n2)cc1 [Compound 50] showed an SI of 100.

Compound N#Cc1ccc(Nc2cc(N)nc(Cc3c(Cl)cccc3Cl)n2)cc1 [Compound 51] has an SI of over 221.

Cc1cc(Br)cc(C)c1Nc1ccnc(Nc2ccc(C#N)cc2)n1.Cl [Compound 56] was tested, and the SI was 839.

Compound Cc1cc(C)c(Oc2ccnc(Nc3ccc(C#N)cc3)n2)c(C)c1 [Compound 58, 4-[[4-(2,4,6-trimethylphenoxy)-2-pyrimidinyl]amino]benzonitrile] has an SI of over 34482.

For N#Cc1ccc(Nc2nccc(Sc3c(Cl)cccc3Cl)n2)cc1 [Compound 59], the SI was over 83333.

N#Cc1ccc(Nc2nccc(Oc3c(Cl)cc(Cl)cc3Cl)n2)cc1 [Compound 60] gave an SI of over 350.

With Cc1cc(Br)c(Nc2ccnc(Nc3ccc(C#N)cc3)n2)c(Br)c1 [Compound 61, 4-[[4-[(2,6-dibromo-4-methylphenyl)amino]-2-pyrimidinyl]amino]benzonitrile] the SI was 155.

Compound Cc1cc(C)c(Nc2nc(Nc3ccc(C#N)cc3)ncc2C)c(C)c1 [Compound 63] has an SI of 198.

For Cc1cc(Cl)cc(Cl)c1Oc1ccnc(Nc2ccc(C#N)cc2)n1 [Compound 64], the SI was over 840.

In the case of N#Cc1ccc(Nc2nccc(Nc3c(Cl)cccc3Cl)n2)cc1 [Compound 65], the SI is reported as 1.

In the case of N#Cc1ccc(Nc2nccc(Nc3c(Cl)cc(F)cc3Br)n2)cc1 [Compound 67], the SI is reported as 152.

With Cc1cc(C)c(Sc2ccnc(Nc3ccc(C#N)cc3)n2)c(C)c1 [Compound 73] the SI was over 27777.

Cc1cc(Cl)cc(Br)c1Oc1ccnc(Nc2ccc(C#N)cc2)n1 [Compound 74] showed an SI of over 9523.

Compound Cc1cc(C#N)cc(C)c1Oc1ccnc(Nc2ccc(C#N)cc2)n1 [Compound 81] has an SI of over 90909.

Cc1cc(C)c(Sc2nc(Nc3ccc(C#N)cc3)ncc2C)c(C)c1 [Compound 86] gave an SI of over 9803.

Cc1cc(C)c(Nc2ccnc(Nc3ccc(C#N)cc3N)n2)c(C)c1 [Compound 90] gave an SI of 9.

Cc1cc(C)c(Nc2ccnc(Nc3ccc(C#N)c(O)c3)n2)c(C)c1 [Compound 91] showed an SI of 1976.

Clc1cccc(Cl)c1Nc1ccnc(Nc2c(Cl)cccc2Cl)n1 [Compound 92] showed an SI of over 2.

Cc1cc(C)c(Nc2ccnc(Nc3ccc(F)cc3F)n2)c(C)c1 [Compound 97] gave an SI of 415.

Cc1cc(C)c(Nc2ccnc(Nc3ccc(Br)cn3)n2)c(C)c1 [Compound 98] showed an SI of 7.

With Cc1cc(C)c(Nc2ccnc(Nc3ccc(C(N)=O)cc3)n2)c(C)c1 [Compound 100, 4-[[4-[(2,4,6-trimethylphenyl)amino]-2-pyrimidinyl]amino]benzamide] the SI was 10.

Cc1cc(C)c(Nc2ccnc(Nc3ccc(C(N)=O)c(N)c3)n2)c(C)c1 [Compound 101] gave an SI of 558.

Compound Cc1cc(C)c(Nc2ccnc(Nc3ccc(C#N)c(N)c3)n2)c(C)c1 [Compound 102] has an SI of 63.
